Mtb glucose medium: 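Whole-cell growth test on Mycobacterium tuberculosis, read after 3 days in glucose-containing 7H9 medium; the read-out is not stated. Tested at 50 µM. The record gives no direction; compounds that gave an IC50 in retests scored well above the rest, so higher reads as more growth inhibition. Size under these conditions: about 69,000 compounds, about 760 of them at 50% or above in at least one test.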
Mtb cholesterol medium: 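Phenotypic screen: M. tuberculosis growth, cholesterol and DPPC medium, 4 days; the read-out is not stated. Compounds at 50 µM. The record gives no direction; compounds that gave an IC50 in retests scored well above the rest, so higher reads as more growth inhibition. Size under these conditions: about 69,000 compounds, about 370 of them at 50% or above in at least one test.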

The filed quantity is “Percent Effect” (%).
The record does not define 0% and 100%; most values in the screen are far below 50% and negative numbers occur (in some assays of this library far below -100).
Many other results are left out here, so strong results are more common than in the screen.
Two or more numbers in one place are separate tests of the same structure; such repeats can differ widely.
A dash means the value is not listed here; it may have been measured.

Compound	Mtb glucose medium	Mtb cholesterol medium
Cc1ccc(Br)cc1C(=O)Nc1cc(C(N)=O)n(C)c1	16.11%	5.637%
COc1ccc(C(=O)Nc2c(C)nn(C(C)C)c2C)cc1	-30.75%	-2.967% and -18.76%
OCCn1nnnc1Cc1ccc(Br)cc1	41.85%	18.72%
O=C(O)CC(O)(CC(=O)O)C(=O)O.[H][C@@]12CC[C@@](O)(c3ccc(C)cn3)[C@]1([H])CN(Cc1cccc(Cl)c1Cl)C2	50.17%	-
O=C(c1cc(C2CC2)[nH]n1)N1CCN(Cc2ccncc2)CC1	-17.64% and -2.127%	9.565%
Cc1c(NC(=O)c2ccc(Br)cc2)c(C(=O)N(C)C)nn1C	3.789%	-
CN(Cc1ccncc1)Cc1nccn1Cc1ccccc1	12.64%	-
Cl.OC1(c2ccc(F)cc2)CCN(Cc2ccccc2N2CCCC2)CC1	52.77%	24.63%
COCC(=O)NC(c1ccc(Cl)cc1)C(F)(F)F (stereo not drawn)	50.34% and 19.03%	-
Cc1cc(CN(C)C(=O)NCc2ccco2)no1	5.652%	-
O=C(NCC1CCC2(CC1)OCCO2)c1ccncc1F	16.49% and -2.466%	6.077%
COC(=O)NCC(=O)N1CCc2cc(Cl)cc(Cl)c2C1	52.14%	-
Cc1noc(C)c1CN(C)CCc1nc(-c2cccc(Cl)c2)no1	30.62% and 35.95%	15.43%
CC(NC(=O)NCc1cc(Br)cs1)c1ccccn1 (stereo not drawn)	-1.176%	-
COC(=O)c1ccc(N2CCN(C(=O)CC(F)(F)F)C(C)C2)cc1 (stereo not drawn)	-12.91%	-
Cc1cc(CN2CCN(C(=O)CCc3cccc(F)c3F)CC2)on1	31.96%	-
CSCC(=O)NS(=O)(=O)c1ccc(C#N)c(C(F)(F)F)c1	-39.61%	-
Cc1nc(C2CCCN(C(=O)CCCOc3cccc(F)c3)C2)no1 (stereo not drawn)	-	8.34% and -6.066%
CCN(C(c1cccnc1)c1ccc(F)cc1F)S(C)(=O)=O (stereo not drawn)	-	-10.28%
CSCc1ccc(C(=O)NCCCNc2ccc(C(F)(F)F)cn2)cc1	70.86%	-
COCCOCC(=O)N1CCc2cc(Cl)cc(Cl)c2C1	25.03%	-
CCc1nnc(CN(C)CC2CCCCC2)o1	61.38%	-
c1ccc(Oc2cccc(OC34CCCN(CC3)C4)c2)cc1 (stereo not drawn)	86.07% and 83.36%	98.66%
CCc1ccc(CCC(=O)NCc2nnc[nH]2)cc1	3.094% and -26.99%	-
Cn1cc(CN2CCC(F)(F)C3(CCN(c4ccccn4)C3)C2)cn1.O=C(O)C(F)(F)F.O=C(O)C(F)(F)F (stereo not drawn)	-	15.48%
COc1cccc2c1OCC(C(=O)N1CCN(C3CCCC3)C(=O)C1)C2 (stereo not drawn)	61.7%	-
O=S(=O)(C/C=C/c1ccccc1)Cc1nc(C2CC2)no1	14.21% and 18.34%	29.73% and 16.66%
Cc1cc2nc(C(C)C)cc(NCCNc3ncccc3C)n2n1	-14.11%	-
CN(Cc1ccsc1)C(=O)CNC(=O)N1CCc2ccccc2C1	-28.39%	-3.374%
O=C(Nc1nncs1)c1ccc(O)nc1	-26.85%	-
CCc1cnc(N2CCN(Cc3ccncc3)CC2)s1	40.15%	-
Cc1nc2c(c(N3CCC(CCn4cccn4)CC3)n1)CCNCC2	79.71%	-
O=C(Nc1ccccn1)C1(n2cnnn2)CCCCC1	11.11%	-
COCCN(C)S(=O)(=O)c1cc(C)cc(F)c1	16.09% and 1.599%	-
Cn1c(C2CC2)nc2cc(NC(=O)C3CCOC3)ccc21 (stereo not drawn)	24.21%	-
Cc1nc(CCNC(C)c2ccc3c(c2)OCCCO3)cs1 (stereo not drawn)	10.86%	-
Cc1ccc(C(=O)N2CCCc3c(c(=O)n(C)n3C)C2)o1	-	-27.81% and -10.42%
Cc1nccn1CCCn1cncc1-c1ccc2c(c1)CCCN2C.Cl	-19.77%	19.26% and -0.06633%
Fc1cccc(-c2nnn3c2COC(CNCc2ccsc2)C3)c1.O=C(O)C(F)(F)F (stereo not drawn)	4.898% and 23.91%	-
CN1CCCN(C(=O)c2cnsn2)c2cc(F)ccc21	-10.29%	-
CC(C)=CCCC(C)(O)c1cc(C(N)=O)no1 (stereo not drawn)	14.12% and 15.99%	12.56%
CSC(C)C(=O)Nc1ccnn1-c1ccccc1C (stereo not drawn)	0.2992% and -16.88%	-15.41%
CCCc1nc2c(c(C)c(C)n2Cc2ccncc2)c(N)c1CC	62.75% and 7.657%	-
Cn1cnc2c1CCN(c1ccnc(-c3ccccc3)n1)C2	54.62%	54.82%
CN(C)S(=O)(=O)c1ccc(F)c(NC(=O)COCC2CC2)c1	48.72% and 47.33%	-
Cc1cc(N2CCC(CO)(CC3CCCCO3)CC2)c2ccccc2n1 (stereo not drawn)	-6.765% and 9.711%	13.69%
COC(=O)NCc1ccc(NC(=O)CC2=CCCCC2)cc1	-	14.1% and 7.396%
CC(=O)NCCOc1c(Cl)cccc1Cl	-2.815%	-
Cc1nnn2c1COC(CNC(=O)c1cccn1C)C2 (stereo not drawn)	-2.173%	-
C1CCC(CNC2CCCN(Cc3noc(C4CC4)n3)C2)C1 (stereo not drawn)	2.264% and -10.09%	-14.15%
CN(Cc1ccc(Cl)s1)C(=O)Cn1nc(-c2ccc(F)cc2)oc1=O	-	93.38%
COC(=O)NCC(=O)NC(c1ccc(Cl)cc1)C(F)(F)F (stereo not drawn)	-4.277% and 8.791%	-
Cc1ccccc1-c1noc(C2CC(C(C)C)=NO2)n1 (stereo not drawn)	41.66%	-
Cn1cc(CCNC(=O)CCc2ccc3c(c2)OCO3)cn1	-11.79%	-
CC(NCc1ccc(OCC(N)=O)cc1)c1ccc2c(c1)CCCC2 (stereo not drawn)	57.16%	43.81%
Fc1cc(Oc2ccc(C(F)(F)F)cn2)cc(F)c1CN1CCCC1	7.435%	2.741%
COc1c(F)cc(NCC(=O)NC(C)(C#N)C2CC2)cc1F (stereo not drawn)	18.62%	16.31%
CC(C)c1nnc2n1CCN(C(=O)c1ccc(-n3cnnc3)cc1)C2	-	74.67%
O=C(O)C(F)(F)F.[H][C@@]12CN(CC(C)C)C[C@]1([H])C(=O)N(CC)C21CCN(S(C)(=O)=O)CC1	-	-7.585% and 71.79%
CCC1=NC(SCC(=O)c2ccc(C)cc2)c2cc(CC)sc2N1 (stereo not drawn)	-44.06%	-

Some entries from above, unchanged:

| Compound | Mtb glucose medium | Mtb cholesterol medium |
|---|---|---|
| `Cc1nc(CCNC(C)c2ccc3c(c2)OCCCO3)cs1` (stereo not drawn) | 10.86% | - |
| `c1ccc(Oc2cccc(OC34CCCN(CC3)C4)c2)cc1` (stereo not drawn) | 86.07% and 83.36% | 98.66% |
| `CCc1ccc(CCC(=O)NCc2nnc[nH]2)cc1` | 3.094% and -26.99% | - |
| `COCC(=O)NC(c1ccc(Cl)cc1)C(F)(F)F` (stereo not drawn) | 50.34% and 19.03% | - |
| `COC(=O)NCC(=O)NC(c1ccc(Cl)cc1)C(F)(F)F` (stereo not drawn) | -4.277% and 8.791% | - |

From ChEMBL document CHEMBL3988442, “University of Dundee, Small-Polar-MMV Screening Library” (2021).